# Reference: the supplement of paper PMC11865577
# Key:
# Assay in all cases: pull-down binding Z-score (relative to library population); higher = stronger binding
# Conditions in all cases: RNA library: Library-2
# [1] = system: TO-N3-2 (biotin conjugate)
# Method in brief: (§1)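 Binding is given as a Z-score against the library mean and standard deviation, calculated after removing the beads-only signal and averaging barcoded replicate probes without their highest and lowest values. Cy5- or Cy3-end-labelled RNA library (1 μg) was heat-folded in phosphate/NaCl/KCl buffer and incubated 60 min at 25 °C with streptavidin beads bearing 100 pmol of biotin-conjugated small molecule. After three washes, RNA eluted in hot SDS was hybridised to a DNA barcode microarray for 20 h at 55.5 °C.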
# [2] = system: TO-3-N3-2 (biotin conjugate)
# Method in brief: as §1
# [3] = system: TO-3-N3 (biotin conjugate)
# Method in brief: as §1
# TO-N3 (biotin conjugate) = system: TO-N3 (biotin conjugate)
# Method in brief: as §1
Sequence,pull-down binding Z-score [1],pull-down binding Z-score [2],pull-down binding Z-score [3],pull-down binding Z-score (TO-N3 (biotin conjugate))
ACUAACAUAGU [SHAPE_invitro_SARS-CoV-2_Motif_134],-1.5,-0.605,-0.305,-0.7
ACUACACAAUUGGAAUUGUGUUAAUUGUGAUACAUUCUGUGCUGGUAGU [DMSMaPseq_invitro_SARS-CoV-2_Motif_143],-0.877,-0.0221,0.343,0.171
ACUACGAAAACAAAUACGUAGU,-0.681,0.103,-0.323,-0.414
ACUACUAACAUAGU [DMSMaPseq_invitro_SARS-CoV-2_Motif_126],-0.996,-0.202,0.121,-0.341
ACUAUAACACAUAUAAAAAUACGUGUGAUGGU,-1.59,-0.578,-1.06,-1.42
ACUAUUGUAUACCUUACAAUAGU,-1.86,-0.514,-0.962,-1.36
ACUCAAUAUGAGU,-0.711,0.00175,1.39,1.2
ACUCACUGUCUUUUUUGAUGGUAGAGU,-1.25,-0.268,-0.149,-0.43
ACUCGUGUAUUGAAACGAUGGAGGUUGUUCAGCAAACACGAGU [IAV_invivo_PB1_2_Motif_7+IAV_invivo_PB1_2_Motif_7],-0.686,-0.124,0.495,0.435
ACUGAAAGUAAACCUUCAGU [SHAPE_invitro_SARS-CoV-2_Motif_71],-1.05,-0.536,-0.852,-1.19
ACUGUAGCUGCAUUUCACCAAGAAUGUAGUUUACAGU [SHAPE_invivo_SARS-CoV-2_Motif_528],-1.86,-0.583,-0.817,-1.19
ACUGUGUAUGAUGAUGGU [SHAPE_invitro_SARS-CoV-2_Motif_210],-0.247,0.191,0.258,0.279
ACUGUUUGUGGACCUAAAAAGUCUACUAAUUUGGU [DMSMaPseq_invitro_SARS-CoV-2_Motif_410],-1.17,-0.426,-0.536,-0.733
ACUUAAGGAUUGUCCAGCUGUUGCUAAACAUGACUUCUUUAAGU,-0.914,-0.0785,0.011,-0.16
ACUUUAUUAUGAUUCAAUGAGUUAUGAGGAUCAAGAUGCACUUUUCGCAUAUACAAAACGUAAUGUCAUCCCUACUAUAACUCAAAUGAAUCUUAAGU,-0.345,-0.152,0.832,0.709
ACUUUUGAUUCUGAGU,-0.597,0.148,1.06,0.725
AGAAAGACAAUUCU,-0.466,-0.225,0.387,0.0897
AGAAAUCAAUACUGAGUCCUCUUUAUGCAUUUGCAUCAGAGGCUGCUCGUGUUGUACGAUCAAUUUUCU [DMSMaPseq_invitro_SARS-CoV-2_Motif_37],-0.223,0.157,0.44,0.279
AGAAGCUGCUCGGUAUAUGAGAUCUCUCAAAGUGCCAGCUACAGUUUCU,1.38,0.656,0.774,0.939
AGACAUCAUGCUAAUGAGUACAGAUUGUAUCUCGAUGCUUAUAACAUGAUGAUCU,1.46,0.0465,-0.306,-0.0243
AGACUCAUCUCUAUGAUGGGUUU [DMSMaPseq_invitro_SARS-CoV-2_Motif_324],-1.43,-0.67,0.0922,-0.252
AGAGAAUUACAUCU [SHAPE_invivo_SARS-CoV-2_Motif_316],-1.04,-0.281,0.112,-0.156

Sequence,pull-down binding Z-score [1],pull-down binding Z-score [2],pull-down binding Z-score [3],pull-down binding Z-score (TO-N3 (biotin conjugate))
AGAGAUCGCCAUUAUUUUGGCAUCUUU [SHAPE_invivo_SARS-CoV-2_Motif_33],-1.09,-0.287,-0.338,-0.607
AGAGCAAAAUGUCUGGUAAAGGCCAACAACAACAAGGCCAAACUGUCACUAAGAAAUCUGCUGCUGAGGCUUCUAAGAAGCCUCGGCAAAAACGUACUGCCACU,0.718,-0.0489,-0.669,-0.139
AGAGCUAGGUGUUGUACAUAAUCAGGAUGUAAACUUACAUAGCUCU,0.268,-0.4,-0.328,-0.459
AGAGCUGCAGAAAUCAGAGCUUCUGCUAAUCU [DMSMaPseq_invitro_SARS-CoV-2_Motif_438],-0.245,-0.314,-0.836,-0.836
AGAGUGAGUAAGAUACUUACCUG [U1snRNP5ss-17],2.21,0.337,0.232,1.2
AGAGUUGAAGUUUAAUCCACCUGCUCUACAAGAUGCUUAUUACAGAGCAAGGGCUGGUGAAGCUGCUAACUUU,0.771,0.235,-0.373,0.316
AGAGUUUAUUCUAGUGCGAAUAAUUGCACUUUUGAAUAUGUCUCU [SHAPE_invivo_SARS-CoV-2_Motif_414],-1.12,-0.248,-0.752,-0.99
AGAUAAAUAUUUUAAGAAUCAUACAUCACCAGAUGUUGAUUUAGGUGACAUCU,0.224,0.599,0.515,0.372
AGAUACUACUGAAGCCUUUGAAAAAAUGGUUUCACUACUUUCU [SHAPE_invivo_SARS-CoV-2_Motif_226],-0.963,-0.49,-0.232,-0.383
AGAUAUUACUAAUUAUUAUGAGGACUUUUAAAGUUUCCAUUUGGAAUCUUGAUUACAUCAUAAACCUCAUAAUUAAAAAUUUAUCU,-0.725,0.0434,-0.532,-0.706
AGAUCGCCAUUAUUUUGGCAUCU,-1.2,-0.218,-0.13,-0.432
AGAUGCUUCUGGUAAGCCAGUACCAUAUUGUUAUGAUACCAAUGUACUAGAAGGUUCU,-0.0854,0.0988,0.592,0.594
AGAUGGAAUUUCACAGUAUUCACUGAGACUCAUUGAUGCUAUGAUGUUCACAUCU [SHAPE_invitro_SARS-CoV-2_Motif_39],-0.722,-0.204,-0.431,-0.347
AGAUUGGUCCUAUUCUGGACAAUCU,-0.819,-0.412,0.176,-0.512
AGCAGCUGGUACGGACACAACUAUUACAGUUAAUGUUUUAGCUUGGUUGUACGCUGCU [DMSMaPseq_invitro_SARS-CoV-2_Motif_191],0.368,-0.143,0.519,0.53
AGCAUCUACAGAUACUUGUUUUGCU [DMSMaPseq_invitro_SARS-CoV-2_Motif_159],-1.05,-0.512,-0.284,-0.496
AGCCAUCCUUACUGCGCU [DMSMaPseq_invitro_SARS-CoV-2_Motif_473],0.261,-0.379,-0.674,-0.487
UUGAACAUGUUACCUUCUUCAUCUACAAUAAAAUUGUUGAUGAGCCUGAAGAACAUGUCCAA [DMSMaPseq_invitro_SARS-CoV-2_Motif_469],-0.961,0.0769,-0.0243,–
UUGACCGCCUCAAUGAGGUUGCCAA,-0.925,-0.423,-0.712,–
UUGACUAUACAGAAAUUUCAUUUAUGCUUUGGUGUAAAGAUGGCCAUGUAGAAACAUUUUACCCAAAAUUACAAUCUAGUCAA [SHAPE_invivo_SARS-CoV-2_Motif_386],-0.668,0.0463,-0.238,–
UUGACUGUAGUGCGCGUCAUAUUAAUGCGCAGGUAGCAA [DMSMaPseq_invitro_SARS-CoV-2_Motif_152],0.18,-0.346,-0.59,–
UUGAUGAAAUUUCAA,-1.51,-0.362,-0.158,–
